According to PMC10111423, “Antimalarial Imidazopyridines Incorporating an Intramolecular Hydrogen Bonding Motif: Medicinal Chemistry and Mechanistic Studies” (ACS Infectious Diseases, 2023):

Test system: P. falciparum-infected erythrocyte
Assay: Live-cell confocal microscopy colocalization with organelle trackers
Assay type: cell-based, Plasmodium falciparum

O=[N+]([O-])c1ccc(NCCN(CCNc2cc3[nH]c(-c4cccc(C(F)(F)F)c4)nc3cn2)Cc2ccc(Cl)cc2O)c2nonc12 [Compound 14-NBD, 5-Chloro-2-(((2-((7-nitrobenzo[c][1,2,5]oxadiazol-4-yl)amino)ethyl)(2-((2-(3-(trifluoromethyl)phenyl)-1H-imidazo[4,5-c]pyridin-6-yl)amino)ethyl)amino)methyl)phenol]
Colocalization with LysoTracker Red (acidic organelles, digestive vacuole): partial accumulation
Colocalization with MitoTracker Deep Red (mitochondrion): interacted significantly with the parasite’s mitochondrion
Colocalization with Nile Red (neutral lipids): colocalized with Nile Red
Colocalization with nuclear marker DRAQ5: no colocalization was observed
